Test results reported in ChEMBL document CHEMBL6177980 (J Med Chem, 2025).

How the values were obtained:
[1] = Selectivity index, ratio of CC50 for cytotoxicity against African green monkey Vero cells to EC50 for antiviral activity against SFTSV infected in African green monkey Vero cells assessed as reduction in viral replication
[2] = system: Mammarenavirus choriomeningitidis; experiment: Antiviral activity against LCMV infected in human A549 cells assessed as reduction in viral replication pretreated for 1 hr followed by viral infection for 1 hr and subsequent replacement of fresh medium containing compound measured after 48 hrs post-infection by RT-qPCR analysis
[3] = system: Severe fever with thrombocytopenia syndrome virus; experiment: Antiviral activity against SFTSV infected in African green monkey Vero cells assessed as reduction in viral replication pretreated for 1 hr followed by viral infection for 1 hr and subsequent replacement of fresh medium containing compound measured after 48 hrs post-infection by RT-qPCR analysis

Question: For `CC(C)C(=O)OC[C@@]1(F)O[C@@H](n2ccc(=O)n(COC(=O)c3cccnc3)c2=O)[C@H](OC(=O)C(C)C)[C@@H]1OC(=O)C(C)C`, which Ratio CC50/EC50 [1] is on record?
Answer: > 112

Question: And the EC50 [2]?
Answer: 150 nM

Question: And the EC50 [3]?
Answer: 890 nM
